Laboratory results taken from US10513559B2, “Amatoxin-armed therapeutic cell surface binding components designed for tumour therapy” (Deutsches Krebsforschungszentrum, priority 2009, dated 2019).

Test system: SKOV-3 ovarial carcinoma cells
Assay: in vivo SKOV-3 xenograft tumor model
Parameters: species or system SCID mice
Details: single i.v. dose 30 or 150 μg/kg on day 10; observation 87 days
Source text: A mouse tumor xenograft model, wherein 2.5×10^& SKOV-3 ovarial carcinoma cells are implanted sub-cutaneously (s.c.) into SCID mice and allowed to grow for 10 days. […] A clear concentration dependent reduction of tumor growth was observed.

In the case of “α-Amanitin-glutarate-Herceptin [Conjugate (15)]”, the tumor remission is reported as “full tumor remission”.
